In patent US10260089B2, “Compositions and methods for recognition of RNA using triple helical peptide nucleic acids” (The Research Foundation for the State University of New York, priority 2012, dated 2019):

System: ribosomal A-site model RNA hairpin HRP6
Assay: ITC binding to bacterial ribosomal A-site model RNA hairpin HRP6 (Example 3)
Set-up: species or system Mycobacterium tuberculosis
Settings: sodium acetate buffer (pH 5.5); in parentheses

Substance	binding order, M. tuberculosis (HRP6)
NH2-CTGCTT [PNA12]	1.6
NH2-CCTGCTT [PNA11]	1.1
NH2CTL-ArgGCTL-ArgT [GPNA13]	8.0
NH2-CCCTL-ArgGCTL-ArgT [GPNA10]	2.9
H-CCCTPCTT (cysteine pairing not given here) [PNA13]	1.1
NH2-CTL-ArgGCTT [GPNA12]	1.8
NH2-CCCTGCTT [PNA10]	1.7
NH2-CCCTPexCTT [PNA14]	1.1

Ends that are not written are not given here.
